Data reported in patent publication US20210238629A1.

Legend:
[1] = biological target: HA of A(H7N7) virus (A/Netherlands/219/2003) (influenza A virus A/Netherlands/219/2003 (H7N7)); experiment: cell-based or functional assay
[2] = biological target: HA of A(H1N1)pdm09 virus (A/Hong Kong/415742/2009) (influenza A virus A(H1N1)pdm09); experiment: cell-based or functional assay

CWGPCPTAFRQIGNCGRFRVRCCRIR (modifications not checked) [P1 peptide]
IC50 (H7N7), plaque reduction assay in MDCK cells [1]: 1.56 µg/mL
IC50 (H1N1), plaque reduction assay in MDCK cells [2]: 1.6 µg/mL

YGRKKRRQRRRCWGPCPTAFRQIGNCGRFRVRCCRIR (modifications not checked) [TAT-P1 dual-functional fusion peptide]
IC50 (H1N1), plaque reduction assay in MDCK cells [2]: 0.67 µg/mL
